Data reported in US6316190.

Biological target: HIV-1 nucleocapsid protein (NC), wild type (Human immunodeficiency virus 1) (UniProt P12493)
Experiment: SPR
Conditions: one NC per oligo, purified recombinant protein, label: biotin, single-stranded DNA, only the motif is given

Row | Sequence | binding result (affinity roughly equal to TGTGT) | binding result (affinity roughly equal to GTGTG)
1 | GTGTG | binds | 
2 | TGTGT |  | binds

For at least one entry, the source does not settle the construct or the ends of the probe.
